Pooled drug test results. Numbers come from NIAID ChemDB, via PubChem.

All rows: growth or infection tests; organism: Hepatitis B virus; cell line: HepG2.117; measure: EC50

Two numbers with a dash give a range or band. Neighbouring rows are from separate reports. Blank or dashed fields: not listed here. ECn: concentration that inhibits the pathogen or its effect by n%.

C[C@H](c1ccccc1)c1cnc([C@@]2(F)CN(C(=O)c3ccc(Br)c(Cl)c3)CCS2(=O)=O)s1 ; method: PCR ; result: <0.1 µM
CNC(=O)c1ccc(-n2c(=O)c3c(n4ncc(NCc5ccc(C#N)cc5)c24)CN(C(=O)c2ccc(Br)c(Cl)c2)CC3)cc1 ; method: PCR ; conditions: 3 d ; result: 0.1–0.5 µM
CC(C)Oc1ccc(-n2c(C(=O)NCc3ccc(C#N)cc3F)c3n(c2=O)CCN(C(=O)c2ccc(Br)c(Cl)c2)C3)cc1 ; method: PCR ; result: 0.1–0.5 µM
C[C@@H](c1cnc([C@]2(F)CN(C(=O)c3ccc(Br)c(Cl)c3)CCS2(=O)=O)s1)c1ccccc1F ; method: PCR ; result: >5 µM
COc1ccc(-n2c(=O)c3c(n4ncc(NC(C)=O)c24)CN(C(=O)c2ccc(Cl)c(Cl)c2)CC3)cc1 ; method: PCR ; conditions: 3 d ; result: 0.5–5 µM
CNc1n[nH]c2cc(-n3c(=O)c4c(n5ncc(CC6CC6)c35)CN(C(=O)c3ccc(Br)c(Cl)c3)CC4)ccc12 ; method: luminescence ; result: ≤0.05 µM
CNC(=O)c1ccc(-n2c(=O)c3c(n4ncc(Cc5ccccc5)c24)CN(C(=O)c2ccc(Br)c(Cl)c2)[C@@H](C)C3)cc1 ; method: PCR ; conditions: 3 d ; result: <0.1 µM
N#Cc1ccc(-n2c(C(=O)NCc3ccccc3)c3n(c2=O)CCN(C(=O)c2ccc(Br)c(Cl)c2)C3)cc1 ; method: PCR ; result: 0.5–5 µM
C[C@@H](c1ccccc1)c1cnc([C@@]2(F)CN(C(=O)c3ccc(Br)c(Cl)c3)CCS2(=O)=O)s1 ; method: PCR ; result: <0.1 µM
NC(=O)c1ccc(-n2c(=O)c3c(n4ncc(NCc5ccccc5)c24)CN(C(=O)c2ccc(Cl)c(Cl)c2)CC3)cc1 ; method: PCR ; conditions: 3 d ; result: <0.1 µM
C[C@@H]1CS(=O)(=O)[C@H](c2cccs2)CN1C(=O)Nc1ccc(F)c(Cl)c1 ; method: PCR ; result: 0.5–5 µM
CNC(=O)c1cnc(-n2c(=O)c3c(n4ncc(CC(C)C)c24)CN(C(=O)c2ccc(Br)c(C(F)(F)F)c2)[C@@H](C)C3)cn1 ; method: luminescence ; result: 0.05–0.5 µM
C[C@H](Oc1ccc(CNC(=O)c2c3n(c(=O)n2-c2ccc(OC4CC4)cc2)CCN(C(=O)c2ccc(Br)c(Cl)c2)C3)c(F)c1)C(N)=O ; method: PCR ; result: 0.1–0.5 µM
C[C@H](c1cnc([C@]2(F)CN(C(=O)c3ccc(Br)c(Cl)c3)CCS2(=O)=O)s1)c1ccccc1F ; method: PCR ; result: 0.5–5 µM
CNc1nnc2cc(-n3c(=O)c4c(n5ncc(Cc6ccccc6)c35)CN(C(=O)c3ccc(Br)c(C(F)(F)F)c3)CC4)ccn12 ; method: luminescence ; result: ≤0.05 µM
O=C(NCc1ccccc1-c1ccncn1)c1c2n(c(=O)n1-c1ccc(OCC(F)(F)F)cc1)CCN(C(=O)c1ccc(Br)c(Cl)c1)C2 ; method: PCR ; result: <0.1 µM
Cc1n[nH]nc1-c1ccc(-n2c(=O)c3c(n4ncc(CC(C)C)c24)CN(C(=O)c2ccc(Cl)c(C(F)(F)F)c2)[C@H](C)C3)cc1 ; method: luminescence ; result: ≤0.05 µM
O=C(c1ccc(Br)cc1)N1CCc2c(n3nccc3n(-c3ccccc3)c2=O)C1 ; method: PCR ; conditions: 3 d ; result: >5 µM
Cc1nc(-c2ccc(-n3c(=O)c4c(n5ncc(Cc6ccccc6)c35)CN(C(=O)c3ccc(Br)c(Cl)c3)[C@@H](C)C4)cc2)n[nH]1 ; method: luminescence ; result: 0.05–0.5 µM
CNC(=O)c1ccc(-n2c(=O)c3c(n4ncc(Cc5ccccc5)c24)CN(C(=O)c2ccc(Br)c(Cl)c2)CC3)cc1 ; method: PCR ; conditions: 3 d ; result: <0.1 µM
CNc1n[nH]c2cc(-n3c(=O)c4c(n5ncc(Cc6ccccc6)c35)CN(C(=O)c3ccc(Br)c(C(F)(F)F)c3)[C@H](C)C4)ccc12 ; method: luminescence ; result: ≤0.05 µM
CNC(=O)c1ccc(-n2c(=O)c3c(n4ncc(Cc5ccc(OC)cc5)c24)CN(C(=O)c2ccc(Br)c(C#N)c2)CC3)cc1 ; method: PCR ; conditions: 3 d ; result: <0.1 µM
O=C(NCc1ccccc1-c1nnco1)c1c2n(c(=O)n1-c1ccc(OC3CC3)cc1)CCN(C(=O)c1ccc(Br)c(Cl)c1)C2 ; method: PCR ; result: <0.1 µM
Cc1nc(-c2ccc(-n3c(=O)c4c(n5ncc(Cc6ccccc6)c35)CN(C(=O)c3ccc(Br)c(C(F)(F)F)c3)[C@H](C)C4)cc2)n[nH]1 ; method: luminescence ; result: ≤0.05 µM
CNC(=O)c1ccc(-n2c(=O)c3c(n4ncc(NCc5ccc(C#N)cc5)c24)CN(C(=O)c2ccc(Cl)c(Cl)c2)CC3)cc1 ; method: PCR ; conditions: 3 d ; result: 0.5–5 µM
N#Cc1cc(C(=O)N2CCn3c(c(C(=O)NCc4ccccc4-c4cccnn4)n(-c4ccc(OC5CC5)cc4)c3=O)C2)ccc1Br ; method: PCR ; result: 0.1–0.5 µM
O=C(c1cc(F)cc(Cl)c1)N1CCS(=O)(=O)[C@@H](c2cccs2)C1 ; method: PCR ; result: 0.5–5 µM

2 of the rows above, restated:

| compound | method | conditions | result |
|---|---|---|---|
| C[C@@H]1CS(=O)(=O)[C@H](c2cccs2)CN1C(=O)Nc1ccc(F)c(Cl)c1 | PCR | - | 0.5–5 µM |
| CNC(=O)c1cnc(-n2c(=O)c3c(n4ncc(CC(C)C)c24)CN(C(=O)c2ccc(Br)c(C(F)(F)F)c2)[C@@H](C)C3)cn1 | luminescence | - | 0.05–0.5 µM |